Measured values reported in patent US20200206342A1 (BOARD OF TRUSTEES OF THE UNIVERSITY OF ILLINOIS, published 2020).

Target: T1, soluble CD4 sCD[…] (domains D1-D2)
T1 construct: domain: D1-D2; also called CD4(D1-D2); sCD4(D1D2)
Assay: flow cytometry titration, Expi293F cells expressing the Env, FITC anti-CD4 [Q842.d12 panel]

B1: Q842.d12 Env gp160 wildtype (other)
chain: not shown
notes: substitutions of the variants are in HXB2 numbering; also called EnvQ842.d12; CD5-Q842.d12 gp160
B1: binds.
